In article PMC5959072, “Biochemical characterization of RecBCD enzyme from an Antarctic Pseudomonas species and identification of its cognate Chi (χ) sequence” (PLoS ONE, 2018):

These substances were tested on Nc1ncnc2c1ncn2[C@@H]1O[C@H](COP(=O)(O)OP(=O)(O)OP(=O)(O)O)[C@@H](O)[C@H]1O (assay: purified protein). Details: 22 °C, pH 7.5, 1 mM Mg acetate, NdeI-linearized pBR322 dsDNA, ATP sites in RecB and RecD.

Row | Substance | Km [µM] | kcat [s⁻¹]
1 | RecBCD^Ps (RecBCD enzyme of Pseudomonas syringae Lz4W) (Pseudomonas syringae; Q8L1Z1:K229Q) | 49.4 ± 5.8 | 24
2 | RecBCD^Ps (RecBCD enzyme of Pseudomonas syringae Lz4W) (Pseudomonas syringae; Q8L1Z2:D1118A) | 59.5 ± 8.5 | 221
3 | RecBCD^Ps (RecBCD enzyme of Pseudomonas syringae Lz4W) (Pseudomonas syringae; Q8L1Z2:K28Q) | 58.3 ± 11.0 | 26
